Anti-infective test results gathered from many reports (values: NIAID ChemDB through PubChem).

All rows: tests on isolated targets

Inhibition is in % at the dose shown (toxicity tests: loss of growth or viability). Blank or dashed fields: not listed here. Rows are shuffled and stem from different studies. ICn is the concentration giving n% inhibition.

smiles	read-out	method	target	dose	organism	strain or isolate	value
O=c1[nH]c(=O)n([C@H]2C[C@H](O)[C@@H](CO)O2)cc1O	IC50	-	Thymidine monophosphate kinase	-	Mycobacterium tuberculosis	-	270 µM
COC1=C(OC)C(=O)C(CCC=C(C)C)=CC1=O	inhibition	-	NADH dehydrogenase	40 µM	Mycobacterium tuberculosis	-	44%
[N-]=[N+]=N[C@H]1C[C@H](n2cc(Br)c(=O)[nH]c2=O)O[C@@H]1CO	IC50	-	Thymidine monophosphate kinase	-	Mycobacterium tuberculosis	-	10.5 µM
N[C@@H]1CN(c2c(F)cc3c(=O)c(C(=O)O)cn([C@@H]4C[C@@H]4F)c3c2Cl)CC12CC2	IC50	-	Gyrase	-	Mycobacterium tuberculosis	-	1.67 µg/mL
O=c1[nH]c(=O)n([C@H]2C[C@H](O)[C@@H](CO)O2)cc1Cl	IC50	-	Thymidine monophosphate kinase	-	Mycobacterium tuberculosis	-	10 µM
CCCC[C@H](CN(O)C=O)C(=O)N1CCCC1C(=O)Nc1cc(CC)ccn1	IC50	-	Peptide deformylase	-	Mycobacterium tuberculosis	-	90 µM
COC(=O)c1ccccc1S(=O)(=O)NC(=O)Nc1nc(C)cc(C)n1	Ki	-	Acetohydroxyacid synthase	-	Mycobacterium tuberculosis	-	11.6 µM
Cc1cn([C@@H]2O[C@H](CO)[C@@H](N)[C@H]2O)c(=O)[nH]c1=O	Ki	-	Thymidylate kinase	-	Mycobacterium tuberculosis	-	750 µM
Cc1onc(-c2c(N)cccc2Cl)c1C(=O)N[C@H]1[C@@H](OC2C[C@H](CO)[C@@H](O)[C@@H](O)[C@H]2O)O[C@H](CO)[C@@H](O)[C@@H]1O	inhibition	-	MYCOTHIOL-S-CONJUGATE AMIDASE	50 µM	Mycobacterium tuberculosis	-	<10%
Cc1cn([C@H]2C[C@H](N=[N+]=[N-])[C@@H](CO)O2)c(=O)[nH]c1=O	Ki	-	Thymidylate kinase	-	Mycobacterium tuberculosis	-	28 µM
O=C1N=C2C(C(=O)N=C3SC([N+](=O)[O-])=CN32)C(c2ccccc2C(F)(F)F)N1	inhibition	absorbance	CysK1	100 µM	Mycobacterium tuberculosis	-	86.2%
O=c1[nH]c(=O)n([C@H]2C[C@H](O)[C@@H](CO)O2)cc1Br	IC50	-	Thymidine monophosphate kinase	-	Mycobacterium tuberculosis	-	5 µM
COC(=O)c1ccccc1S(=O)(=O)NC(=O)Nc1nc(C)nc(C)n1	Ki	-	Acetohydroxyacid synthase	-	Mycobacterium avium	-	39 µM
O=C1C=CC(=O)c2ccccc21	inhibition	-	NADH dehydrogenase	40 µM	Mycobacterium tuberculosis	-	22%
CCCCNS(=O)(=O)c1cc(Br)cnc1N	inhibition	absorbance	Lipoamide dehydrogenase	100 µM	Mycobacterium tuberculosis	H37Rv	15%
O=c1ccn([C@@H]2O[C@H](CO/N=C/c3cc([N+](=O)[O-])cc([N+](=O)[O-])c3O)[C@@H](O)[C@H]2O)c(=O)[nH]1	IC50	-	UDP-galactopyranose mutase	-	Mycobacterium tuberculosis	-	>100 µM
Cc1ccc2ccccc2[n+]1C	IC50	HPLC	Mycolate synthetase	-	Mycobacterium tuberculosis	-	1400 µM
CCOc1ccc2cc(-n3nncc3COc3nc(-c4ccccc4)sc3C(=O)O)c(=O)oc2c1	IC50	gel / absorbance	DNA gyrase	-	Mycobacterium tuberculosis	-	11.31 µM
O=Cc1cc([N+](=O)[O-])cc([N+](=O)[O-])c1O	IC50	-	UDP-galactopyranose mutase	-	Mycobacterium tuberculosis	-	>100 µM
O=C(CCN1C(=O)/C(=C/c2ccc(OCc3ccccc3)cc2)SC1=S)NNC(=O)c1ccncc1	IC50	absorbance	Pantothenate synthetase	-	Mycobacterium tuberculosis	-	1.54 µM
O=c1[nH]c(=O)n([C@H]2C[C@H](O)[C@@H](CO)O2)cc1CO	IC50	-	Thymidine monophosphate kinase	-	Mycobacterium tuberculosis	-	820 µM
NC(=O)C(=O)NCc1cccnc1	inhibition	absorbance	Lipoamide dehydrogenase	100 µM	Mycobacterium tuberculosis	H37Rv	100%
COc1nc(C)nc(NC(=O)NS(=O)(=O)c2ccccc2OCCCl)n1	Ki	-	Acetohydroxyacid synthase	-	Mycobacterium avium	-	39.6 µM
O=C(CON=Cc1cc([N+](=O)[O-])cc([N+](=O)[O-])c1O)NC[C@H]1O[C@@H](n2ccc(=O)[nH]c2=O)[C@H](O)[C@@H]1O	IC50	-	UDP-galactopyranose mutase	-	Mycobacterium tuberculosis	-	>100 µM
C/C(=C\CCC1=CC(=O)c2ccccc2C1=O)CCC[C@@H](C)CCC[C@@H](C)CCCC(C)C	inhibition	-	NADH dehydrogenase	40 µM	Mycobacterium tuberculosis	-	81%
O=c1[nH]c(=O)n([C@H]2C[C@H](O)[C@@H](CO)O2)cc1Br	Ki	-	Thymidine monophosphate kinase	-	Mycobacterium tuberculosis	-	625 µM
COc1nc(C)nc(NC(=O)NS(=O)(=O)c2ccccc2Cl)n1	Ki	-	Acetohydroxyacid synthase	-	Mycobacterium avium	-	215 µM
O=C1N=C2SC([N+](=O)[O-])=CN2C2=NC(=S)NC(c3ccc(F)cc3)C12	inhibition	absorbance	CysK1	100 µM	Mycobacterium tuberculosis	-	40%
Cc1cn([C@@H]2O[C@H](CO)[C@@H](O)[C@H]2O)c(=O)[nH]c1=O	Ki	-	Thymidine monophosphate kinase	-	Mycobacterium tuberculosis	-	716 µM
O=c1[nH]c(=O)n([C@H]2C[C@H](O)[C@@H](CO)O2)cc1/C=C/Br	IC50	-	Thymidine monophosphate kinase	-	Mycobacterium tuberculosis	-	625 µM
Nc1ccc2cc(-n3nncc3COc3nc(-c4cccnc4)sc3C(=O)O)c(=O)oc2c1	IC50	gel / absorbance	DNA gyrase	-	Mycobacterium tuberculosis	-	0.75 µM
O=c1[nH]c(=O)n([C@H]2C[C@H](O)[C@@H](CO)O2)cc1C(F)(F)F	IC50	-	Thymidine monophosphate kinase	-	Mycobacterium tuberculosis	-	97 µM
COC(=O)c1sc(-c2ccncc2)nc1OCc1cnnn1-c1cc2ccc(O)cc2oc1=O	IC50	gel / absorbance	DNA gyrase	-	Mycobacterium tuberculosis	-	11.4 µM
Cc1cn([C@@H]2O[C@H](COP(=O)([O-])[O-])[C@@H](O)[C@H]2N)c(=O)[nH]c1=O	Ki	-	Thymidine monophosphate kinase	-	Mycobacterium tuberculosis	-	19.01 µM
Cc1cn([C@@H]2O[C@H](CO)[C@@H](N=[N+]=[N-])[C@H]2Cl)c(=O)[nH]c1=O	Ki	-	Thymidylate kinase	-	Mycobacterium tuberculosis	-	170 µM
COc1cc(C[C@@H](C)[C@@H](C)Cc2ccc(O)c(OC)c2)ccc1O	Ki	-	Rv1284	-	Mycobacterium tuberculosis	Rv1284	9.1 µM
[N-]=[N+]=N[C@H]1C[C@H](n2cc(Cl)c(=O)[nH]c2=O)O[C@@H]1CO	IC50	-	Thymidine monophosphate kinase	-	Mycobacterium tuberculosis	-	16 µM
CCCOc1ccc(N(C)c2cc(C)nc3ccc(Cl)cc23)cc1	IC90	-	FtsZ	-	Mycobacterium tuberculosis	H37Rv	15.7 µM
O=C(Nc1ccc(Br)cc1)C1CCC(S(=O)(=O)c2cccnc2)CC1	inhibition	absorbance	Lipoamide dehydrogenase	100 µM	Mycobacterium tuberculosis	H37Rv	24%
O=C(CCN1C(=O)/C(=C/c2ccc(OCc3ccccc3)cc2)SC1=S)NNC(=O)c1cccc2ccccc12	IC50	absorbance	Pantothenate synthetase	-	Mycobacterium tuberculosis	-	1.7 µM
O=c1[nH]c(=O)n([C@H]2C[C@H](O)[C@@H](CO)O2)cc1Cl	IC50	-	Thymidine monophosphate kinase	-	Mycobacterium tuberculosis	-	10 µM
CC(C)(C)NC(=O)C(=O)NCc1cccnc1	inhibition	absorbance	Lipoamide dehydrogenase	100 µM	Mycobacterium tuberculosis	H37Rv	60%
Nc1nc(N)nc(-c2ccc(OCc3ccc(Cl)cc3)cc2)n1	IC50	absorbance	Dihydrofolate reductase	-	Mycobacterium tuberculosis	-	5.175 µM
COC(=O)c1ccccc1S(=O)(=O)NC(=O)Nc1nc(OC(F)F)cc(OC(F)F)n1	Ki	-	Acetohydroxyacid synthase	-	Mycobacterium tuberculosis	-	30.7 µM
COc1cc(C2NC(=O)N=C3C2C(=O)N=C2SC([N+](=O)[O-])=CN23)ccc1O	inhibition	absorbance	CysK1	100 µM	Mycobacterium tuberculosis	-	9.5%
COc1cc(/C=C2\SC(=S)N(CCC(=O)NNC(=O)c3ccccc3)C2=O)cc(OC)c1OC	IC50	absorbance	Pantothenate synthetase	-	Mycobacterium tuberculosis	-	1.39 µM
Cc1ccccc1C1NC(=S)N=C2C1C(=O)N=C1SC([N+](=O)[O-])=CN12	inhibition	absorbance	CysK1	100 µM	Mycobacterium tuberculosis	-	84.1%
O=c1[nH]c(=O)n([C@H]2C[C@H](O)[C@@H](CO)O2)cc1/C=C/Br	IC50	-	Thymidine monophosphate kinase	-	Mycobacterium tuberculosis	-	625 µM
O=c1[nH]c(=O)n([C@H]2C[C@H](O)[C@@H](CO)O2)cc1I	IC50	-	Thymidine monophosphate kinase	-	Mycobacterium tuberculosis	-	33 µM
CCOc1ccc2cc(-n3nncc3COc3nc(-c4ccccn4)sc3C(=O)O)c(=O)oc2c1	IC50	gel / absorbance	DNA gyrase	-	Mycobacterium tuberculosis	-	11.2 µM
O=c1[nH]c(=O)n([C@H]2C[C@H](O)[C@@H](CO)O2)cc1CO	IC50	-	Thymidine monophosphate kinase	-	Mycobacterium tuberculosis	-	820 µM
Cc1cc(N)c2ccccc2[n+]1CCCCCCCCCC[n+]1c(C)cc(N)c2ccccc21	Ki	HPLC	Mycolate synthetase	-	Mycobacterium tuberculosis	-	0.22 µM
O=C1N=C2C(C(=O)N=C3SC([N+](=O)[O-])=CN32)C(c2ccc([N+](=O)[O-])cc2)N1	inhibition	absorbance	CysK1	100 µM	Mycobacterium tuberculosis	-	45.3%
Nc1ccc2cc(-n3nncc3COc3nc(-c4ccccc4)sc3C(=O)O)c(=O)oc2c1	IC50	gel / absorbance	DNA gyrase	-	Mycobacterium tuberculosis	-	0.71 µM
O=C(CCN1C(=O)/C(=C/c2ccc([N+](=O)[O-])cc2)SC1=S)NNC(=O)c1cccc2ccccc12	IC50	absorbance	Pantothenate synthetase	-	Mycobacterium tuberculosis	-	1.4 µM
COC(=O)c1sc(-c2ccccc2)nc1OCc1cnnn1-c1cc2ccc(N)cc2oc1=O	IC50	gel / absorbance	DNA gyrase	-	Mycobacterium tuberculosis	-	0.63 µM
Cc1cn([C@@H]2O[C@H](CO)[C@@H](CN)[C@H]2O)c(=O)[nH]c1=O	Ki	-	Thymidine monophosphate kinase	-	Mycobacterium tuberculosis	-	156 µM
O=C1N=C2SC([N+](=O)[O-])=CN2C2=NC(=S)NC(c3ccccc3C(F)(F)F)C12	inhibition	absorbance	CysK1	100 µM	Mycobacterium tuberculosis	-	10.6%
CN(C[C@H](O)[C@H](O)[C@H](O)CO)c1[nH]c(=O)[nH]c(=O)c1N	Ki	-	Lumazine synthase	-	Mycobacterium tuberculosis	-	341 µM
COc1ccc(C2NC(=O)N=C3C2C(=O)N=C2SC([N+](=O)[O-])=CN23)cc1	inhibition	absorbance	CysK1	100 µM	Mycobacterium tuberculosis	-	6.1%
Cc1cc(N)c2ccccc2[n+]1C	IC50	HPLC	Mycolate synthetase	-	Mycobacterium tuberculosis	-	827 µM

A second listing of 4 rows from above:

smiles	read-out	method	target	dose	organism	strain or isolate	value
Cc1cn([C@@H]2O[C@H](CO)[C@@H](CN)[C@H]2O)c(=O)[nH]c1=O	Ki	-	Thymidine monophosphate kinase	-	Mycobacterium tuberculosis	-	156 µM
[N-]=[N+]=N[C@H]1C[C@H](n2cc(Br)c(=O)[nH]c2=O)O[C@@H]1CO	IC50	-	Thymidine monophosphate kinase	-	Mycobacterium tuberculosis	-	10.5 µM
O=C1N=C2SC([N+](=O)[O-])=CN2C2=NC(=S)NC(c3ccc(F)cc3)C12	inhibition	absorbance	CysK1	100 µM	Mycobacterium tuberculosis	-	40%
COC1=C(OC)C(=O)C(CCC=C(C)C)=CC1=O	inhibition	-	NADH dehydrogenase	40 µM	Mycobacterium tuberculosis	-	44%